Chains of the proteins cited; added tags and fusions are not shown. Residues count along the entry.
UniProt P54300, 24-365 limits assumed: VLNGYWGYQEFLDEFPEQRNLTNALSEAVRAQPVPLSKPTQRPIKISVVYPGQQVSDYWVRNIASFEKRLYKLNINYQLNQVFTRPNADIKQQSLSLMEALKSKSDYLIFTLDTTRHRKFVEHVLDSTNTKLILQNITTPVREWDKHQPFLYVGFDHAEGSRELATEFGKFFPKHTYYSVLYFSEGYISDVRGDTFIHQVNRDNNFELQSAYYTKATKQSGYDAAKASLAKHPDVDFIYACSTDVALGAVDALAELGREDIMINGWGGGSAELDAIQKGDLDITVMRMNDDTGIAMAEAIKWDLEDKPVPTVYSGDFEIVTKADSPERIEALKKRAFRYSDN

According to ChEMBL document CHEMBL1141519, “Pyrogallol and its analogs can antagonize bacterial quorum sensing in Vibrio harveyi” (Bioorg Med Chem Lett, 2008):

Target: Autoinducer 2-binding periplasmic protein LuxP (Vibrio harveyi, UniProt P54300)
Experiment: Antagonist activity at LuxP receptor in Vibrio harveyi MM32 assessed as inhibition of autoinducer-2-mediated quorum sensing after 3 to 4 hrs

O=[N+]([O-])c1cc([N+](=O)[O-])c(O)c(O)c1O
IC50: 3 µM
